Test results taken from patent publication US20180057544.

Molecular target: human CD20, human, P11836 1-297
Experiment: cell-based or functional assay

(αCD20-scFv::SLT-1A)2
cytotoxicity relative to the "unpurified" (αCD20-scFv::SLT-1A)n composition: 2.3 fold
